The target of this assay is SARS-CoV-2 S protein (strain BetaCoV/Wuhan-Hu-1/2019) expressed on transfected cells (SARS-CoV-2 (Wuhan-Hu-1), UniProt P0DTC2 14-1273). Briefly: flow cytometry, B cell supernatant on S-transfected ExpiCHO cells.

Data on one molecule can be found in patent publication US20250263467A1 (VIR BIOTECHNOLOGY, published 2025).

B1: SARS-CoV-2 S306 (antibody, V domains shown)
VH: QVQLVQSGAEVKKPGASVKVSCKASTYTFTSFGISWVRQAPGQGLEWMGWITTYSGDTNYAQKFQGRVTMTTDTSTNTAYMELRSLRSDDTAVYYCASDYFDSSGYYHSFDYWGQGTLVTVSS
VL: EIVLTQSPDTLSLSPGERATLSCRASQSVSSYLAWYQQRPGQAPRLLIYDASKRATGIPARFSGSGSGTDFTLTISSLEPEDFAVYYCQQRSNWPPGCSFGQGTKVEIK
As to B1, the binding result is reported as “binds”.
